Laboratory results taken from US20030114445A1, “N3-substituted 6-anilinopyrimidines and methods to treat-Gram-positive bacterial and mycoplasmal infections” (priority 2001, published 2003).
pKi: −log10 of the molar value. Converted amounts (≈) assume the structure as drawn. The structures given here were assigned with low confidence; some may be wrong.

By UniProt entry, the sequences of proteins in these tests, tags left out.
UniProt P13267, whole entry: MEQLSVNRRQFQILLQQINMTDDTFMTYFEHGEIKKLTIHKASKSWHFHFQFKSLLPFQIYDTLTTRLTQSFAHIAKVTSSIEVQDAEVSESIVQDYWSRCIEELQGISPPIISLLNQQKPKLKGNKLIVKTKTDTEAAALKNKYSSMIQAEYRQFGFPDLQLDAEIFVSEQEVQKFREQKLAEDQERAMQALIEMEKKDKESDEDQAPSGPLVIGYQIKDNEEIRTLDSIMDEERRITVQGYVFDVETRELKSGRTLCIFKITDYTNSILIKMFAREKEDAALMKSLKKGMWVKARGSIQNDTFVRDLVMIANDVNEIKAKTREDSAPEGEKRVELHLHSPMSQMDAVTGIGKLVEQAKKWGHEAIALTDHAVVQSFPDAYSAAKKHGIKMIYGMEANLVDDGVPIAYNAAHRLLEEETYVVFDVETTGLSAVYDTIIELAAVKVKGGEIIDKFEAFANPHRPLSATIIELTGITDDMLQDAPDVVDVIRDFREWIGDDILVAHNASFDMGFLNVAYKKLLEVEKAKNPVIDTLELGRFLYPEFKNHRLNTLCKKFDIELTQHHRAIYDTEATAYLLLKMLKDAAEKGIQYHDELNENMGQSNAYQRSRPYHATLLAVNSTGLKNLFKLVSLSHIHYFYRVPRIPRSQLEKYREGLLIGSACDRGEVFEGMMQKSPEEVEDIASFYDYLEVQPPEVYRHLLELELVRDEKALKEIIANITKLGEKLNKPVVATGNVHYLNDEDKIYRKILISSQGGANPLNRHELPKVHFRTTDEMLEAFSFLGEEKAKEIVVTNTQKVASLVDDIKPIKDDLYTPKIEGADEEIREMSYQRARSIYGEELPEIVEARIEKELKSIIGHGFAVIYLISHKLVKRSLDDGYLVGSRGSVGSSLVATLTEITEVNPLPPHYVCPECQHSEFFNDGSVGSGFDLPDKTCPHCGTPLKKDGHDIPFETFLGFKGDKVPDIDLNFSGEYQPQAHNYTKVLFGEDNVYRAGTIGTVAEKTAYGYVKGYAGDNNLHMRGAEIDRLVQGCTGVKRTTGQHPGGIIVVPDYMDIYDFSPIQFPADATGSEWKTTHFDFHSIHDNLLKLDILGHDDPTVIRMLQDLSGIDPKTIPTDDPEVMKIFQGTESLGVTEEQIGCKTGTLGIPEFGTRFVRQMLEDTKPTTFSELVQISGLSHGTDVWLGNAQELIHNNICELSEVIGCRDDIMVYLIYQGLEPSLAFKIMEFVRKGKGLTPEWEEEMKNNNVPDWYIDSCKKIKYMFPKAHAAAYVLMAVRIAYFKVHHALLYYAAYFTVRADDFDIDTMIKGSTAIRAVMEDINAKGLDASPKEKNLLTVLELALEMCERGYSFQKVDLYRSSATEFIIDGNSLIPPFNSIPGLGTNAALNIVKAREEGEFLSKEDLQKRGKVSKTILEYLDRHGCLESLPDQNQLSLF

Key:
[1] = target: B.subtilis pol IIIC (Bacillus subtilis, UniProt P13267); conditions: read-out: K1 B.subtilis pol IIIC; truncated assay, apparent inhibitor constant
[2] = test system: E. fecium; assay: Inhibition of bacterial growth on agar plates (MIC); assay type: cell-based; conditions: 37° C., 24 hours
Protocol: (§1) Each compound is assayed against a panel of Bacillus, Enterococcus and Staphylococcus, and a Gram-negative bacterium Escherichia coli as negative control, grown in appropriate plate media solidified with 1.3% agar-agar. Stock solutions of the compounds in dimethylsulfoxide or water, depending on solubility, are added to sterile medium at a temperature of 60° C. This stock mixture is diluted with drug-free medium and used to make a series of Petri plates containing inhibitor in a series of two-fold serial dilutions, from about 80 to 0.625 μg/mL. One tenth mL of diluted bacteria containing 500-1000 colony-forming units (CFU) are plated and spread, and the plates incubated at 37° C. for 24 hours. MIC (minimum inhibitory concentration) is equivalent to the lowest concentration at which growth, i.e. colony formation, is not observed.

[3] = test system: S.aureus (Smith); assay: as above; assay type: cell-based; conditions: 37° C., 24 hours
Protocol: as §1

[4] = test system: E. fecalis; assay: as above; assay type: cell-based; conditions: 37° C., 24 hours
Protocol: as §1

`CCc1cc(Nc2cc(=O)n(CCCCN3C[C@@H](C)O[C@@H](C)C3)c(=O)[nH]2)ccc1C` (relative stereo) was tested, and the pKi [1] was 7.44, the “MIC E. fecium” value [2] was 20 µg/mL (≈ 48.2 µM) and the “MIC S.aureus (Smith)” value [3] was greater than 20 µg/mL. The “MIC E. fecalis” value [4] was greater than 20 µg/mL.
